## Sequence variants of PSTVd stem 15 after infection

Source: Wu et al. 2024 (doi:10.1371/journal.ppat.1012142), supplementary data.

The pool varies stem 15 of the PSTVd intermediate strain in the pattern CUGGAGCGAUNGNNUNNG; wild type is CUGGAGCGAUCGCUUCGG (upper and lower strand joined, each 5' to 3', the first 9 letters being the upper strand).

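Three N. benthamiana plants were inoculated with the whole mutant pool. Progeny were sequenced from the inoculated region (day 5), the margin of the inoculated leaf (day 10) and systemic leaves (day 12).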

Numbers give reads per thousand; 0 = not seen among the reads, higher = more abundant.
Each value is the mean of three plants.
"Pool" is the share in the plasmid pool used as inoculum, on the same scale.
The inoculated region was read from the minus strand, the other sites from the plus strand.
IR is the inoculated region, LM the leaf margin, Sys the systemic leaves.
Wild type was 10.2 per thousand in the pool and the most common sequence in every sample (inoculated region 285, 367, 312; leaf margin 785, 865, 782; systemic leaves 854, 898, 915).

With CUGGAGCGAUCGCAUGUG (pool 1.16) the assay gave IR 0.236; LM 0.0122; Sys 0.
With CUGGAGCGAUAGGCUGGG (pool 1.02) the assay gave IR 0.401; LM 0.0397; Sys 0.
With CUGGAGCGAUCGGAUUCG (pool 0.937) the assay gave IR 0.255; LM 0.0260; Sys 0.
With CUGGAGCGAUCGUGUCAG (pool 0.905) the assay gave IR 0.336; LM 0.0349; Sys 0.
With CUGGAGCGAUCGCUUGCG (pool 0.857) the assay gave IR 0.299; LM 0.0585; Sys 0.
With CUGGAGCGAUUGGCUUCG (pool 1.03) the assay gave IR 1.75; LM 0.506; Sys 0.533.
With CUGGAGCGAUAGUCUCGG (pool 0.824) the assay gave IR 0.222; LM 0.0367; Sys 0.
With CUGGAGCGAUCGGUUUAG (pool 1.55) the assay gave IR 0.707; LM 0.0666; Sys 0.00664.
With CUGGAGCGAUUGGUUAGG (pool 0.873) the assay gave IR 0.388; LM 0.0159; Sys 0.
With CUGGAGCGAUUGCCUGUG (pool 0.889) the assay gave IR 0.292; LM 0.0388; Sys 0.
With CUGGAGCGAUUGAUUUGG (pool 0.857) the assay gave IR 0.257; LM 0.00689; Sys 0.
With CUGGAGCGAUAGCUUACG (pool 1.07) the assay gave IR 0.357; LM 0.0510; Sys 0.
With CUGGAGCGAUAGAUUCUG (pool 0.986) the assay gave IR 0.268; LM 0.0868; Sys 0.00664.
With CUUGAGCGAUAGCGUGGG (pool 0.0162) the assay gave IR 0; LM 0; Sys 0.
With CUGGAGCGAUGGCGUUCG (pool 0.679) the assay gave IR 0.247; LM 0.0616; Sys 0.
With CUGGAGCGAUUGCCUCCG (pool 0.970) the assay gave IR 0.251; LM 0.0532; Sys 0.
With CUGUAGCGAUAGUUUAUG (pool 0.0162) the assay gave IR 0; LM 0; Sys 0.
With CUGGAGCGAUAGUAUUUG (pool 0.727) the assay gave IR 0.290; LM 0.0419; Sys 0.
With CUGGAGCGAUCGUAUAUG (pool 0.857) the assay gave IR 0.292; LM 0.0287; Sys 0.
With CUGGAGCGAUAGUUUUCG (pool 0.760) the assay gave IR 0.197; LM 0.0488; Sys 0.
With CUGGAGCGAUAGGGUGGG (pool 0.954) the assay gave IR 0.301; LM 0.0381; Sys 0.
With CUGGAGCGAUCGUGUUGG (pool 0.792) the assay gave IR 0.239; LM 0.0626; Sys 0.
With CUGGAGCGAUUGAAUCCG (pool 0.663) the assay gave IR 0.352; LM 0.0516; Sys 0.
With CUGGAGCGAUUGUCUAAG (pool 0.776) the assay gave IR 1.43; LM 0.743; Sys 0.608.
With CUGGAGCGAUCGUGUAUG (pool 0.792) the assay gave IR 0.329; LM 0.00689; Sys 0.
With CUGGAGCGAUAGCGUAGG (pool 1.16) the assay gave IR 0.296; LM 0.0632; Sys 0.
With CUGGAGCGAUGGGCUUUG (pool 1.08) the assay gave IR 0.497; LM 0.0175; Sys 0.
With CUGGAGCGAUAGCGUCCG (pool 0.711) the assay gave IR 0.205; LM 0.00528; Sys 0.
With CUGGAGCGAUCGACUAUG (pool 0.582) the assay gave IR 0.255; LM 0.0601; Sys 0.
With CUGGAGCGAUUGCCUACG (pool 0.646) the assay gave IR 0.314; LM 0.0318; Sys 0.
With CUGGAGCGAUUGAUUUCG (pool 0.905) the assay gave IR 0.288; LM 0.0770; Sys 0.
With CUGGAGCGAUUGCGUUAG (pool 0.776) the assay gave IR 1.66; LM 0.0282; Sys 0.
With CUGGAGCGAUGGCGUACG (pool 0.824) the assay gave IR 0.256; LM 0.0701; Sys 0.

4 of these entries, quoted again:

| sequence | pool | IR | LM | Sys |
|---|---|---|---|---|
| CUGGAGCGAUUGAUUUCG | 0.905 | 0.288 | 0.0770 | 0 |
| CUGGAGCGAUCGUGUCAG | 0.905 | 0.336 | 0.0349 | 0 |
| CUGGAGCGAUUGCCUCCG | 0.970 | 0.251 | 0.0532 | 0 |
| CUGGAGCGAUUGGUUAGG | 0.873 | 0.388 | 0.0159 | 0 |

Sequences that differ at fixed positions probably stem from PCR or sequencing errors, and defective variants can be carried along by functional ones.
Samples held 36,693 to 63,082 reads, so the smallest values rest on one or two reads.